Our source for the koff values is article PMC10331576 (2023).

This assay deals with COVID-2019-Spike-328-585 (RBD) (SARS-CoV-2). As to the kind of experiment: BLI. A general note: In BLI a coated tip is dipped into the sample, and binding shifts an interference pattern.

Usually koff stands for the first-order rate constant of dissociation. Low values mean a long-lived complex, high ones a short-lived complex.

B1: human CLEC2.Fc fusion protein (Fc fusion)
chain: SVMQRNYLQGENENRTGTLQQLAKRFCQYVVKQSELKGTFKGHKCSPCDTNWRYYGDSCYGFFRHNLTWEESKQYCTDMNATLLKIDNRNIVEYIKARTHLIRWVGLSRQKSNEVWKWEDGSVISENMFEFLEDGKGNMNCAYFHNGKMHPTFCENKHYLMCERKAGMTKVDQLP
B1 came in with a koff of 0.000574 s⁻¹.
